# Potato spindle tuber viroid, loop 6: variant abundance in plants

Reference: Wu et al. 2024, doi:10.1371/journal.ppat.1012142.

PSTVd intermediate strain, loop 6: wild type UGACCGCGAG, pool pattern UNNNCGNNNG; upper and lower strand joined, each 5' to 3', the first 5 letters being the upper strand, closing pairs included.

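A pool of all variants was put on leaves of three Nicotiana benthamiana plants. Progeny were sequenced from the inoculated region (day 5), the margin of the inoculated leaf (day 10) and systemic leaves (day 12).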

Numbers give reads per thousand; 0 = not seen among the reads, higher = more abundant. Each site shows the three plants. "Pool" is the share in the plasmid pool used as inoculum, on the same scale. The inoculated region was read from the minus strand, the other sites from the plus strand.

| sequence | pool | inoculated region | leaf margin | systemic leaves |
|---|---|---|---|---|
| UGAACGUCCG | 0.144 | 0.226 / 0.126 / 0.111 | 0 / 0 / 0.0232 | 0 / 0 / 0 |
| UGAACGUCGG | 0.261 | 0.156 / 0.108 / 0.221 | 0.0276 / 0 / 0.0232 | 0 / 0 / 0 |
| UGAACGUCUG | 0.248 | 0.209 / 0.0898 / 0.240 | 0.0276 / 0 / 0.0928 | 0 / 0 / 0 |
| UGAACGUGAG | 0.222 | 0.678 / 3.84 / 6.10 | 1.35 / 1.61 / 1.23 | 0.144 / 0.626 / 0.595 |
| UGAACGUGCG | 0.0915 | 0.139 / 0.234 / 0.166 | 0.0276 / 0 / 0.0232 | 0 / 0 / 0 |
| UGAACGUGGG | 0.196 | 0.139 / 0.0898 / 0.221 | 0.0552 / 0 / 0 | 0 / 0 / 0 |
| UGAACGUGUG | 0.288 | 0.487 / 0.701 / 0.609 | 0.0276 / 0.0252 / 0.0696 | 0 / 0 / 0 |
| UGAACGUUAG | 0.379 | 0.782 / 0.826 / 0.775 | 0.0828 / 0.0504 / 0.0232 | 0 / 0 / 0 |
| UGAACGUUCG | 0.196 | 0.122 / 0.216 / 0.240 | 0.0828 / 0 / 0 | 0 / 0 / 0 |
| UGAACGUUGG | 0.170 | 0.122 / 0.0898 / 0.221 | 0 / 0 / 0.0232 | 0 / 0 / 0 |
| UGAACGUUUG | 0.366 | 0.104 / 0.0359 / 0.184 | 0 / 0 / 0 | 0 / 0 / 0 |
| UGAACUCUAG | 0.0131 | 0 / 0 / 0 | 0 / 0 / 0 | 0 / 0 / 0 |
| UGACAGAACG | 0.0261 | 0 / 0 / 0 | 0 / 0 / 0 | 0 / 0 / 0 |
| UGACAGAAUG | 0.0131 | 0.0174 / 0 / 0 | 0 / 0 / 0 | 0 / 0 / 0 |
| UGACAGACAG | 0.0131 | 0 / 0 / 0 | 0 / 0 / 0 | 0 / 0 / 0 |
| UGACAGAGCG | 0.0131 | 0 / 0 / 0 | 0 / 0 / 0 | 0 / 0 / 0 |
| UGACAGAUUG | 0.0131 | 0 / 0.0180 / 0 | 0 / 0 / 0 | 0 / 0 / 0 |
| UGACAGCCGG | 0.0131 | 0 / 0 / 0 | 0.0276 / 0 / 0 | 0 / 0 / 0 |
| UGACAGCGCG | 0.0131 | 0.0348 / 0 / 0 | 0 / 0 / 0 | 0 / 0 / 0 |
| UGACAGCGUG | 0.0131 | 0.556 / 0.611 / 0.516 | 0.0828 / 0.151 / 0.139 | 0.0359 / 0 / 0 |
| UGACAGGAGG | 0.0131 | 0 / 0 / 0 | 0 / 0 / 0 | 0 / 0 / 0 |
| UGACAGGCGG | 0.0131 | 0 / 0 / 0 | 0 / 0 / 0 | 0 / 0 / 0 |
| UGACAGGCUG | 0.0131 | 0 / 0.0180 / 0 | 0 / 0 / 0.0232 | 0 / 0 / 0 |
| UGACAGGUGG | 0.0131 | 0 / 0 / 0 | 0.0276 / 0.0504 / 0 | 0 / 0 / 0 |
| UGACAGUCAG | 0.0131 | 0 / 0 / 0 | 0 / 0 / 0 | 0 / 0 / 0 |
| UGACAGUGAG | 0.0131 | 0.504 / 0.521 / 0.443 | 0.0276 / 0.0252 / 0.116 | 0 / 0.0606 / 0.0205 |
| UGACAGUGGG | 0.0131 | 0 / 0.0180 / 0 | 0 / 0 / 0 | 0 / 0 / 0 |
| UGACAGUUAG | 0.0131 | 0 / 0.0180 / 0 | 0 / 0 / 0 | 0 / 0 / 0 |
| UGACCCCGUG | 0.0131 | 0 / 0 / 0 | 0 / 0.101 / 0 | 0 / 0 / 0 |
| UGACCGAAAG | 0.0392 | 0.156 / 0.180 / 0.166 | 0.359 / 1.64 / 0.0232 | 0.0719 / 0.101 / 0.185 |
| UGACCGAACG | 0.275 | 0.243 / 0.234 / 0.129 | 0.221 / 0.479 / 0.278 | 0.108 / 0.0606 / 0.144 |
| UGACCGAAGG | 0.0261 | 0.104 / 0.0719 / 0.0369 | 0.221 / 0 / 0.0232 | 0 / 0 / 0 |
| UGACCGAAUG | 0.523 | 0.330 / 0.449 / 0.406 | 1.41 / 0.277 / 0.0232 | 0.108 / 0.0606 / 0.205 |
| UGACCGACAG | 0.327 | 0.382 / 0.216 / 0.387 | 0.276 / 0.429 / 0.0464 | 0.0539 / 0.0404 / 0.144 |
| UGACCGACCG | 0.275 | 0.243 / 0.144 / 0.0738 | 0.276 / 0.227 / 0.0232 | 0.0898 / 0.0808 / 0.0615 |
| UGACCGACGG | 0.288 | 0.191 / 0.198 / 0.221 | 0.359 / 0.429 / 1.49 | 0.0359 / 0 / 0.226 |
| UGACCGACUG | 0.431 | 0.278 / 0.377 / 0.350 | 0.248 / 0.454 / 0.0232 | 0.0539 / 0.0808 / 0.246 |
| UGACCGAGAG | 0.275 | 0.643 / 0.665 / 0.516 | 1.30 / 25.9 / 1.42 | 0.898 / 0.747 / 3.83 |
| UGACCGAGCG | 0.366 | 0.348 / 0.234 / 0.184 | 0.138 / 0.782 / 0.0464 | 0.0180 / 0.0404 / 0.533 |
| UGACCGAGGG | 0.340 | 0.174 / 0.287 / 0.258 | 0.387 / 0.0252 / 0.0464 | 0.0359 / 0.101 / 0.164 |
| UGACCGAGUG | 0.275 | 0.348 / 0.234 / 0.221 | 0.276 / 0.605 / 0.0696 | 0.126 / 0.0404 / 0.185 |
| UGACCGAUAG | 0.471 | 0.330 / 0.611 / 0.479 | 0.718 / 0.555 / 31.1 | 0.0898 / 0.0808 / 0.246 |
| UGACCGAUCG | 0.327 | 0.191 / 0.234 / 0.129 | 0.276 / 0.858 / 0.0464 | 0.0359 / 0 / 0.226 |
| UGACCGAUGG | 0.458 | 0.330 / 0.377 / 0.314 | 0.248 / 6.91 / 0.0928 | 0.0359 / 0 / 0.287 |

The last 3 entries again:

sequence,pool,inoculated region,leaf margin,systemic leaves
UGACCGAUAG,0.471,0.330 / 0.611 / 0.479,0.718 / 0.555 / 31.1,0.0898 / 0.0808 / 0.246
UGACCGAUCG,0.327,0.191 / 0.234 / 0.129,0.276 / 0.858 / 0.0464,0.0359 / 0 / 0.226
UGACCGAUGG,0.458,0.330 / 0.377 / 0.314,0.248 / 6.91 / 0.0928,0.0359 / 0 / 0.287

The authors trace changes outside the varied positions to PCR and sequencing errors or to mutation in the plant; presence does not show that a variant is infectious alone. With 36,220-57,551 reads a sample, very low values are single reads. For reference, wild type rose from 20.7 per thousand in the pool to 195, 198, 203 (inoculated region), 629, 591, 734 (leaf margin) and 942, 870, 868 (systemic leaves).